This note sets out measurements from patent US9695127B2, “Compounds for treating HIV and methods for using the compounds” (University of Pittsburgh—Of the Commonwealth System of …, priority 2012, dated 2017).

The chains behind the UniProt entries cited, without tags or fusion partners. A line that says so, or that is headed by a name, gives the form on record, which may keep a tag or linker. Residues count along the entry.
UniProt P03407, whole entry: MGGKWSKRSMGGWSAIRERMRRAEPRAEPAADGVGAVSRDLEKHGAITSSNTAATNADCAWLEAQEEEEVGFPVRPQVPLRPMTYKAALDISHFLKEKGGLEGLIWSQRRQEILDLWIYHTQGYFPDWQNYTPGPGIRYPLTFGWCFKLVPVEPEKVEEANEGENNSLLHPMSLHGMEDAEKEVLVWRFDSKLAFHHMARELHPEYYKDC
UniProt P08631, 78-522 with tags or gaps limits assumed: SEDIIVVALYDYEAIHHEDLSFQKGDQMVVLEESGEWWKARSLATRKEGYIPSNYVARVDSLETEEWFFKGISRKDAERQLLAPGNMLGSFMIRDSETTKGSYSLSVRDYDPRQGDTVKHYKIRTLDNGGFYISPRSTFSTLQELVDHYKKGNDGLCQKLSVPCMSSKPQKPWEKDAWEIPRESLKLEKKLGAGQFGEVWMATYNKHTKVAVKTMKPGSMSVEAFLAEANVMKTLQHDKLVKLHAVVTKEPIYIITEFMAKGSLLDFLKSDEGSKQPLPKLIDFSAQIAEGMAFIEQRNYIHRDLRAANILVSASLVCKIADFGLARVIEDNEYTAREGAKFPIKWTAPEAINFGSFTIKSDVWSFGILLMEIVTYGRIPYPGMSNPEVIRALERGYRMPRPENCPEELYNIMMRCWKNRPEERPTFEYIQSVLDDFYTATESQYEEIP

The term IC50 denotes the midpoint of a concentration-inhibition curve. A low value points to greater potency. One may read the inhibition as the drop in the measured response relative to a control, in per cent.

Assay [1] concerns cell-surface CD4. Put plainly: Nef-induced CD4 downregulation in CEM-GFP cells (flow cytometry). As to conditions: CEM-GFP cells infected with HIV-1 WT NL43, 8 days. For orientation: Flow cytometry measures light scatter and fluorescence of single cells or particles in a stream.
For assay [2], the system named is wild-type HIV-1 NL4-3. Put plainly: HIV-1 replication in U87MG cells (p24 ELISA). It is filed as cell-based.
For assay [3], the system named is HIV-1 NL4-3. Particulars: 3 μM, TZM-b1 reporter cells.
Assay [4] has as its target Nef:Hck complex (UniProt P03407+P08631, Q523E/Q524E/Q525I). As to conditions: for inhibition: 20 µM.

With `NC(=S)n1nc(-c2ccc([N+](=O)[O-])cc2)c(N=Nc2cccc(Cl)c2)c1O`, the “Reversal of Nef-mediated CD4 downregulation” value in assay [1] was “reverse Nef-mediated CD4 downregulation to the same extent observed in cells infected with Nef-defective HIV-1”. The “REPLICATION @ 3 μM % Inhibition vs. DMSO control” value in assay [2] stood at 47.4%. Besides, the “INFECTIVITY @ 3 μM % Inhibition vs. DMSO control” value in assay [3] is 37.0%.
In the case of `O=C(c1cnn(C(=O)c2cccc(S(=O)(=O)N3CCOCC3)c2)c1)c1ccccc1O`, in assay [4], the IC50 is 2.71 µM and the inhibition was 79.9%.
`Cc1nc2ccc3nc(NC(=O)c4ccc5c(c4)OCCO5)sc3c2s1`: in assay [4], the IC50 was determined as 4.79 µM and the inhibition was 92.5%.
As for `NC(=S)n1nc(-c2ccc([N+](=O)[O-])cc2)c(N=Nc2ccc(Cl)cc2)c1O`, in assay [4], the IC50 was 5.36 µM and the inhibition worked out at 123%.
`COc1ccc(NC(=O)CN2C(=O)C(=C3SC(=S)N(C4CCS(=O)(=O)C4)C3=O)c3ccccc32)cc1` (centres unmarked): in assay [4], the IC50 is 2.87 µM and the inhibition is 109%.
